Results of unrelated studies side by side (data: NIAID ChemDB).

All rows: tests on isolated targets

An empty or dashed field is not shown. Fold resistance has wild type as its base. ICn is the concentration giving n% inhibition. Neighbouring rows are from separate reports. Inhibition is in % at the dose shown (toxicity tests: loss of growth or viability).

smiles,target,strain,read-out,mutations,agent,dose,result
CC(C)(C)c1cccc(Oc2cccc(-c3ccc(C=C4SC(=S)N(CC(=O)O)C4=O)o3)c2)c1,NS5 polymerase,,IC50,,Bovine viral diarrhea virus,,≤1 µM
O=C(Nc1nnc(NCCCCc2ccccc2)s1)c1ccc(Cl)c(Cl)c1,Polymerase,,IC50,,Human cytomegalovirus,,>25 µM
COc1ccc(OC)c(N(C)Cc2cccc3nc(N)nc(N)c23)c1,Dihydrofolate reductase,TYPE 1,IC50,,Cryptosporidium parvum,,>10 µM
CCCCCCCC/C=C/CCCCCCCC(=O)Nc1nnc(NCC2CCCCC2)s1,Polymerase,,IC50,,Human cytomegalovirus,,>25 µM
O=C(O)CP(=O)(O)O,DNA polymerase,,inhibition,,Epstein-Barr virus,0.5 µg/mL,26.2%
Nc1nc(N)c2c(ccc3cc(Br)ccc32)n1,Dihydrofolate reductase,TYPE 2,IC50,,Cryptosporidium parvum,,>10 µM
O=C1O[C@H]2C(O)O[C@@H]3COC(=O)c4cc(O)c(O)c(O)c4-c4c(cc(c(O)c4O)Oc4c(cc(O)c(O)c4O)C(=O)O[C@@H]4[C@@H](OC(=O)c5cc(O)c(O)c(O)c5)[C@@H]5OC(=O)c6cc(O)c(O)c(O)c6-c6c(cc7c(c6O)OC6C(O7)C1=CC(=O)C6(O)O)C(=O)OC[C@H]5O[C@H]4O)C(=O)O[C@H]3[C@@H]2OC(=O)c1cc(O)c(O)c(O)c1,DNA polymerase,,inhibition,,Epstein-Barr virus,5 µg/mL,46.9%
Clc1cccc(N2CCN(c3cncc(-c4csc5ccccc45)n3)CC2)c1,UL97 kinase,,inhibition,,Cytomegalovirus,10 µM,>15%
Cc1c(-c2ccc(Cl)c(Cl)c2)sc2nc(N)nc(N)c12,Dihydrofolate reductase,TYPE 1,IC50,,Cryptosporidium parvum,,>10 µM
CC1(C)C2CC[C@@H](CNc3nnc(NC(=O)CCCCCl)s3)C1C2,Polymerase,,IC50,,Human cytomegalovirus,,>25 µM
COc1cc(N(C)Cc2csc3nc(N)nc(N)c23)cc(OC)c1OC,Dihydrofolate reductase,TYPE 1,IC50,,Cryptosporidium parvum,,>10 µM
O=C(O)c1ccc(N2C(=O)C(=Cc3ccc(-c4ccco4)o3)SC2=S)cc1,NS5 polymerase,,IC50,,Bovine viral diarrhea virus,,≤1 µM
COc1ccc(OC)c(NCc2ccc3nc(N)nc(N)c3c2Cl)c1,Dihydrofolate reductase,TYPE 2,IC50,,Cryptosporidium parvum,,0.0065 µM
COc1cccc(N2CCN(c3cnccn3)C(c3cc4ccccc4o3)C2)c1,UL97 kinase,,IC50,,Cytomegalovirus,,<10 µM
Cc1c(-c2ccc(C=C3SC(=S)N(c4ccc(C(=O)O)cc4)C3=O)o2)sc2ccc(Cl)cc12,NS5 polymerase,,IC50,,Bovine viral diarrhea virus,,≤1 µM
CCOC(=O)N1CCN(C(=O)c2ccc(N(C)Cc3ccc4nc(N)nc(N)c4n3)cc2)CC1,Dihydrofolate reductase,TYPE 2,IC50,,Cryptosporidium parvum,,3.2 µM
O=C(Nc1nnc(NCCc2ccccc2)s1)c1cc(F)cc(F)c1,Polymerase,,IC50,,Human cytomegalovirus,,>25 µM
CCCCCCCCCCCCC/C=C/[C@@H](O)[C@H](CO[C@@H]1O[C@H](CO)[C@H](O)[C@H](OS(=O)(=O)O)[C@H]1O)NC(=O)CCCCCCCCCCCCCCCCCCCCCCC,Sialidase,Influenza A/Bangkok/1/79 (H3N2),inhibition,,Influenza A virus,200 µM,72.8%
OCc1cccc(-c2cncc(N3CCN(CCN4CCCC4)CC3)n2)c1,UL97 kinase,,inhibition,,Cytomegalovirus,10 µM,>15%
N#Cc1ccc(C(=O)Nc2nnc(NCCc3ccc(S(N)(=O)=O)cc3)s2)cc1,Polymerase,,IC50,,Human cytomegalovirus,,>25 µM
COc1cc(CCNc2ccc3nc(N)nc(N)c3c2Cl)cc(OC)c1OC,Dihydrofolate reductase,TYPE 2,IC50,,Cryptosporidium parvum,,>10 µM
Cc1cc(C)cc(-c2ccc(C=C3SC(=S)N(c4ccc(C(=O)O)cc4)C3=O)o2)c1,NS5 polymerase,,IC50,,Bovine viral diarrhea virus,,≤1 µM
CN(Cc1ccc2nc(N)nc(N)c2n1)c1ccc(C(=O)NC23CC4CC(CC(C4)C2)C3)cc1,Dihydrofolate reductase,TYPE 1,IC50,,Cryptosporidium parvum,,1.8 µM
Fc1ccc(N2CCN(c3cncc(-c4ccc(F)c(Cl)c4)n3)CC2)c(F)c1,UL97 kinase,,inhibition,,Cytomegalovirus,10 µM,>15%
Clc1cc(CN2CCCNCCNCCCNCC2)cc(Cl)n1,CXCR4,,fold resistance,CXCR4-D182N,,,1.33

Repeating the final 2 entries:

smiles | target | strain | read-out | mutations | agent | dose | result
Fc1ccc(N2CCN(c3cncc(-c4ccc(F)c(Cl)c4)n3)CC2)c(F)c1 | UL97 kinase |  | inhibition |  | Cytomegalovirus | 10 µM | >15%
Clc1cc(CN2CCCNCCNCCCNCC2)cc(Cl)n1 | CXCR4 |  | fold resistance | CXCR4-D182N |  |  | 1.33